Measured values from several laboratories, pooled; numbers as filed in NIAID ChemDB.

Common to all: enzyme or target tests; organism: HIV-1; target: Reverse transcriptase; method: RT activity / radiometric; read-out: inhibition; dose: 200 µg/mL

Percent inhibition refers to the dose given; in toxicity tests it is the harm to the cells. Lines come from different laboratories, so protocols vary.

compound,value
COc1cc(-c2ccccc2)c(OC)c(OC)c1O,91.15%
C/C=C/c1ccc2c(c1)[C@H](C)[C@@H](c1ccc(O)cc1)O2,73.2%
C=CC(C)(C)c1c2c(c(O)c3c(=O)c4ccc(OC)c(O)c4oc13)C=CC(C)(C)O2,44.41%
O=C1c2c(O)cc(O)cc2O[C@@H](c2ccc(O)cc2)[C@@H]1c1c(O)cc(O)c2c(=O)cc(-c3ccc(O)c(O)c3)oc12,100%
COc1cc2c(cc1OC)C1Cc3ccc4c(c3CN1CC2)OCO4,33%
CC(=O)O[C@@H](/C=C(\C)C(=O)O)C[C@@H](C)[C@H]1CC[C@@]2(C)C3CC[C@H]4C(C)(C)C(=O)CC[C@]4(C)C3=CC[C@]12C,94.45%
CC1=C(O)c2c(oc(-c3ccccc3)cc2=O)C(C)(C)C1=O,31%
CC(C)=CC[C@H]1C[C@@]2(C[C@H]3CCC(C)(C)C=C3C)C(=O)[C@](C(=O)c3ccccc3)(C(=O)C3=C2OC(C)(C)C=C3)C1(C)C,20.11%
CC1(C)C=Cc2c(c(O)cc3oc4cc(O)cc(O)c4c(=O)c23)O1,62.06%
COC(=O)/C(C)=C/C=C/[C@@H](C)[C@H]1CC[C@@]2(C)C3CC[C@H]4C(C)(C)C(=O)CC[C@]4(C)[C@@]3(O)CC[C@]12C,48.5%
COc1cc(O)cc(OC)c1C(=O)c1ccc(O)c(O)c1,53.45%
CC(C)=CCC[C@@H](C)[C@@H]1CC[C@]2(C)C3=C(CC[C@@]12C)[C@@]1(C)CC[C@H](O)C(C)(C)[C@@H]1CC3,6.8%
COc1c2c(c(C(=O)c3ccccc3)c3c1C=CC(C)(C)O3)OC(C)(C)C=C2,4.83%
C/C=C/c1ccc2c(c1)[C@H](C)[C@@H](c1ccc(OC)c(OC)c1)O2,28.5%
O=c1c2cc(O)ccc2oc2cccc(O)c12,32.42%
C/C(=C\CC[C@@H](C)C1CC[C@@]2(C)[C@@H]3CC[C@H]4C(C)(C)C(=O)CC[C@]4(C)[C@@]3(O)CC[C@]12C)C(=O)O,80.75%

A second listing of 2 rows from above:

compound	value
COc1cc2c(cc1OC)C1Cc3ccc4c(c3CN1CC2)OCO4	33%
C/C(=C\CC[C@@H](C)C1CC[C@@]2(C)[C@@H]3CC[C@H]4C(C)(C)C(=O)CC[C@]4(C)[C@@]3(O)CC[C@]12C)C(=O)O	80.75%